Experiments:
jararhagin [1] = target: T1, jararhagin (Bothrops jararaca, UniProt P30431); assay: fibrinogen degradation (SDS-PAGE); Trp fluorescence change; settings: bovine fibrinogen as substrate; fluorescence at 0.07375-1.18 mM SA, pH 8.0, 1 mM CaCl2
jararhagin [2] = target: T1, jararhagin; assay: intrinsic Trp fluorescence quenching; settings: 0.2 mg/ml jararhagin, 0.07375-1.18 mM rutin, 20 mM Tris, 140 mM NaCl, 1 mM CaCl2, pH 8.0, 1% DMSO

The chains behind the UniProt entries cited, without tags or fusion partners. Residues count along the entry.
UniProt P30431, 151-571 limits assumed: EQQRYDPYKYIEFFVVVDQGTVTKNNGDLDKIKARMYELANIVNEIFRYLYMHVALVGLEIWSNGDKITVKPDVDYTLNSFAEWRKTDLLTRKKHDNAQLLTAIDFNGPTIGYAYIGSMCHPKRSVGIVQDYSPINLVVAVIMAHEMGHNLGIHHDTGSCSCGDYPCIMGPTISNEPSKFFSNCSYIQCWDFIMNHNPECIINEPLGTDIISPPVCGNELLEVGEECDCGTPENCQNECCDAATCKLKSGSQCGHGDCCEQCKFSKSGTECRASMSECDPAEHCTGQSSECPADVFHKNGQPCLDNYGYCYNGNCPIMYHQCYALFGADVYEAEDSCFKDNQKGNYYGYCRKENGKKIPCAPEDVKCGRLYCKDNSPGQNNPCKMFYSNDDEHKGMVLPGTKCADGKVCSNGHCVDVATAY

| Structure (SMILES) | fibrinogen degradation (SDS-PAGE); Trp fluorescence change (jararhagin [1]) | intrinsic Trp fluorescence quenching (jararhagin [2]) |
| --- | --- | --- |
| O=C(O)CCC(=O)O | RS and SA decreased the degradation of fibrinogen by jararhagin | – |
| C[C@@H]1O[C@@H](OC[C@H]2O[C@@H](Oc3c(-c4ccc(O)c(O)c4)oc4cc(O)cc(O)c4c3=O)[C@H](O)[C@@H](O)[C@@H]2O)[C@H](O)[C@H](O)[C@H]1O [rutin] | – | rutin and RS decreased the fluorescence of Trp residues in BjV proteins (Figure 7A) and jararhagin |
